Results of unrelated studies side by side (data: NIAID ChemDB).

Shared fields: whole-cell or culture tests; species: Human cytomegalovirus; endpoint: EC50

ECn is the concentration giving n% inhibition of infection, replication or growth.

compound	strain or isolate	read by	result
Nc1nc2c(ncn2COC(CO)CO)c(=O)[nH]1	TOWNE	virus yield	<0.7 µM
Cc1cc(C)cc(Cn2c(=O)cc(N3CCCCC3)n(CC#N)c2=O)c1	AD169	-	99 µM
CCCC(C)Nc1ccc(Oc2ccc(O)cc2)cc1	AD169	virus yield	0.6 µM
Nc1nc2c(ncn2COC(CO)CO)c(=O)[nH]1	R56	plaque count	7 µM
Nc1nc2c(ncn2COC(CO)CO)c(=O)[nH]1	11 isolates	plaque count	44.35 µM
COCCOCn1cc(C(N)=S)c2c(N)ncnc21	TOWNE	hybridisation	1.3 µM
[N-]=[N+]=N[C@H]1C[C@H](CO)S[C@@H]1n1cnc2c(=O)[nH]cnc21	-	-	<100 µg/mL
COCC(C)Nc1nc(C)c([N+](=O)[O-])c(-n2ccnc2C)n1	-	-	0.9 µM
COc1cccc(N2CCN(C3=Nc4c(F)cccc4[C@H](CC(=O)O)N3c3cc(C(F)(F)F)ccc3OC)CC2)c1	Clinical isolate 1	plaque count	0.0015 µM
O=C(NCc1ccc(Cl)cc1)c1c[nH]c2ccc(CCCO)cc2c1=O	DAVIS	virus yield	<3.9 µM
Nc1nc2c(ncn2C=C2CC2CO)c(=O)[nH]1	VR4760 (ganciclovir-resistant)	plaque count	2 µM
CCC(C)Nc1ccc(Sc2ccc(O)cc2)cc1	-	virus yield	30 µM
[N-]=[N+]=N[C@H]1C[C@@H](CO)S[C@H]1n1cnc2c(N)ncnc21	-	-	<100 µg/mL
O=C(NCc1ccc(Cl)cc1)c1c[nH]c2c(F)cccc2c1=O	AD169	plaque count	6.4 µM
CN(C)c1cccc2c(S(=O)(=O)Nc3ccc(NC(=O)C(C)(C)CO)cc3)cccc12	AD169 (resistant strain)	plaque count	14 µM
[N-]=[N+]=N[C@@H]1C[C@@H](CO)S[C@H]1n1cnc2c(=O)[nH]cnc21	-	-	<100 µg/mL
CN(C)c1cccc2c(S(=O)(=O)Nc3ccc(NC(=O)C(C)(C)CO)cc3)cccc12	Isolate HE	plaque count	0.89 µM
CO[C@@H]1CCN(c2nc(C)c([N+](=O)[O-])c(-n3ccnc3)n2)C1	-	-	0.28 µM
Nc1ncnc2c1c(I)cn2COCCO	TOWNE	-	4.6 µM
O=C(NCc1ccc(Cl)cc1)c1c[nH]c2ccc(C#CCO)cc2c1=O	AD169	plaque count	0.8 µM
Cc1nc(NC2CCc3c(F)ccc(F)c32)nc(-n2ccnc2)c1[N+](=O)[O-]	-	-	0.138 µM
CNc1ncnc2c1ncn2[C@@H]1S[C@H](CO)C[C@@H]1N=[N+]=[N-]	-	-	<100 µg/mL
Cc1cc(C)cc(Cn2c(=S)ccn(Cc3ccc(C(C)(C)C)cc3)c2=O)c1	AD169	-	>120 µM
CCC(C)Nc1ccc(Oc2ccc(OC)cc2)cc1	-	virus yield	58 µM
CO[C@H]1Cc2ccccc2[C@H]1Nc1nc(C)c([N+](=O)[O-])c(-n2ccnc2)n1	-	-	0.2 µM
Nc1nc2c(ncn2[C@H]2C=C[C@@H](CO)[C@H](O)C2)c(=O)[nH]1	AD169	-	1.5 µg/mL
Oc1ccc(Oc2ccc(NC3CCCCC3)cc2)cc1	-	virus yield	3.6 µM
CCOCn1ccc(=S)n(Cc2cc(C)cc(C)c2)c1=O	AD169	-	55 µM
COc1ccc(Oc2ccc(NC3CCCCCCC3)cc2)cc1	-	virus yield	39.5 µM
Cc1cc(C)cc(Cn2c(=S)ccn(Cc3ccccn3)c2=O)c1	AD169	-	30 µM
CN(C)c1ccc(Oc2ccc(NC3CCCCCC3)cc2)cc1	-	virus yield	48 µM
Nc1nc2c(ncn2COC(CO)CO)c(=O)[nH]1	D16 (DHPG-R)	plaque count	44 µM
c1ccc(Oc2ccc(NC3CCCCCC3)cc2)cc1	-	virus yield	43.5 µM
CNc1ncnc2c1ncn2[C@H]1S[C@@H](CO)C[C@@H]1N=[N+]=[N-]	-	-	<100 µg/mL

For reference, 5 entries again:

compound	strain or isolate	read by	result
[N-]=[N+]=N[C@H]1C[C@H](CO)S[C@@H]1n1cnc2c(=O)[nH]cnc21	-	-	<100 µg/mL
Oc1ccc(Oc2ccc(NC3CCCCC3)cc2)cc1	-	virus yield	3.6 µM
CO[C@@H]1CCN(c2nc(C)c([N+](=O)[O-])c(-n3ccnc3)n2)C1	-	-	0.28 µM
CCC(C)Nc1ccc(Sc2ccc(O)cc2)cc1	-	virus yield	30 µM
Cc1cc(C)cc(Cn2c(=S)ccn(Cc3ccc(C(C)(C)C)cc3)c2=O)c1	AD169	-	>120 µM

Blank or dashed fields: not listed here. Conditions beyond the fields shown may differ between rows.